“And” between values parts separate entries of the source, which are not always exact repeats. Identical values can stand only once.
Tested on: acetic acid-induced writhing in mice
Assay type: in vivo, Kunming mice
Settings: aspirin combined with TTX 0.79 μg/kg (1/25 LD50), i.m.; probit method

SMILES: CC(=O)Oc1ccccc1C(=O)O [ASP, Aspirin]
- ID50 (half inhibition dose) of aspirin: 5.0 mg/kg and 5.01 mg/kg

Reference: patent US20090105197A1, “Use of Sodium Channel Blocking Compounds and Aspirin in Manufacturing Drugs for Producing Analgesia Synergistically in Mammals” (priority 2001, published 2009)
